Test system: AB943 primary human dermal fibroblast cell line
Assay: Cytotoxicity, Alamar Blue
Assay type: cell-based
Details: CC50 on AB943 fibroblasts / IC50 on 3D7
Procedure: Cells were seeded in 96-well plates (20,000 cells/mL) and incubated for 24 h, then treated with the drug for 72 h. […] Fluorescent viable cells were monitored after 5 h of incubation at 37 °C at a wavelength of 530 nm for excitation and 590 nm for emission in an FL600 luminescence spectrometer (Biotek, Colmar, France).

alpinetin [Compound 7]
Selectivity Index CC50/IC50: 1.4

pinocembrin [Compound 8]
Selectivity Index CC50/IC50: 1.3
